Pooled drug test results. Numbers come from NIAID ChemDB, via PubChem.

Common to all: growth or infection tests; species: HIV-1; cell line: CEM; endpoint: fold resistance

Fold resistance has wild type as its base.

structure,strain or isolate,mutations,read by,value
C=C(C)COc1cc(NC(=S)OC(C)C)ccc1Cl,,RT-Y181C,syncytia,>11.1
CCOCn1c(Sc2ccccc2)c(C(C)C)c(=O)[nH]c1=S,IIIB,RT-Y188H,syncytia,≥3330
CC1=C(C(=O)Nc2ccc(Cl)c(C(=O)OC(C)C)c2)SCCO1,IIIB,RT-V106A,syncytia,>1450
C=C(Cl)COc1cc(NC(=S)c2ccoc2C)ccc1Cl,Pyridone-resistant (RT Y181C),RT-Y181C,syncytia,22.8
CCC(C)OC(=S)Nc1ccc(Cl)c(C(=O)OC(C)(C)C)c1,,RT-Y181C,syncytia,16.7
CC1=C(C(=O)Nc2ccc(Cl)c(/C=N/OC(C)(C)C)c2)CCCO1,,RT-L100I,syncytia,3.57
CCc1c(Sc2cc(C)cc(C)c2)n(COCc2ccccc2)c(=O)[nH]c1=O,IIIB,RT-Y181C,syncytia,80
C=CCOC(=O)c1cc(NC(=S)c2ccoc2C)ccc1Cl,,RT-L100I,syncytia,33.3
COc1ccc(NC(=O)C2=C(C)OCCS2)cc1OCC=C(Cl)Cl,TIBO R82913-resistant (RT K103N),RT-K103N,syncytia,2.5
O=S(=O)(Cc1ccccc1I)c1cccc[n+]1[O-],IIIB,RT-Y181C,syncytia,2.5
CCC1=C(C(=O)Nc2ccc(Cl)c(C(=O)OC(C)C)c2)SCCO1,PYR-resistant (RT Y181C),RT-Y181C,syncytia,125
CC(C)=CCOc1cc(NC(=S)c2ccsc2C)ccc1Cl,,RT-K103N,syncytia,6.3
COC(=S)Nc1ccc(Cl)c(C(=O)OC(C)C)c1,,RT-Y181C,syncytia,≥5.27
Cc1ccc(C)c(CS(=O)(=O)c2cccc[n+]2[O-])c1,,RT-K103N,cytopathic effect,2.07
CC(C)OC(=O)c1cc(NC(=S)OCC2(C)COC2)ccc1Cl,,RT-L100I,syncytia,>1.07
Cc1occc1C(=S)Nc1ccc(Cl)c(OC(=O)OC(C)C)c1,,RT-Y181C,syncytia,0.273
Cc1ccc(C)c(CS(=O)c2ccc(Cl)c[n+]2[O-])c1,IIIB,RT-L100I,syncytia,2.3
CC(C)OC(=O)c1cc(NC(=S)OC(C)C)ccc1Cl,IIIB,RT-V179D,syncytia,11.4
Cc1sccc1C(=O)Nc1ccc(Cl)c(OCC=C(Cl)Cl)c1,HEPT-resistant (RT Y188H),RT-Y188H,syncytia,22.2
CC(=O)OCCOC(=O)c1cc(NC(=S)OC(C)C)ccc1Cl,,RT-L100I,syncytia,≥10
Cc1ccsc1C(=O)Nc1ccc(Cl)c(C(=O)OC2CCCCC2)c1,,RT-L100I,syncytia,28.3
Cc1ccc(C(C)S(=O)(=O)c2c(C)ccc[n+]2[O-])c(C)c1,,RT-K103N,cytopathic effect,14.7
Cc1occc1C(=O)Nc1ccc(Cl)c(/C=N/N(C)C)c1,L-697 661-resistant RT Y181C,RT-Y181C,syncytia,<8.89
CSC(=Nc1ccc(Cl)c(C(=O)OC(C)C)c1)OC(C)C,,RT-L100I,syncytia,>1
CCOCn1c(Sc2cc(C)cc(C)c2)c(CC)c(=O)[nH]c1=O,IIIB (TIBO 82150) (RT-L100I),RT-L100I,syncytia,1.5
CCOC(=O)c1cc(NC(=S)OC(C)C)ccc1SC,,RT-V106A,syncytia,83.5
COc1ccc(NC(=O)c2ccoc2C)cc1OCC=C(Cl)Cl,Pyridone-resistant (RT Y181C),RT-Y181C,syncytia,32
C/C=C\COc1cc(NC(=S)OC(C)C)ccc1Cl,,RT-E138K,syncytia,22.6
Cc1ccsc1C(=S)Nc1ccc(Cl)c(C(=O)OC2CCCCC2)c1,,RT-V106A,syncytia,6.67
Cc1occc1C(=S)Nc1ccc(Cl)c(/C=N/OC(C)(C)C)c1,IIIB,RT-E138K,syncytia,2
Cc1occc1C(=S)Nc1ccc(Cl)c(C(=O)OC(C)C)c1,,RT-L100I,syncytia,85
CCCOC(=S)Nc1ccc(Cl)c(C(=O)OC(C)C)c1,,RT-L100I,syncytia,54.1
C/C=C/COc1cc(NC(=S)c2ccoc2C)ccc1Cl,,RT-L100I,syncytia,85
Cc1sccc1C(=S)Nc1ccc(Cl)c(OCC=C(Cl)Cl)c1,HEPT-resistant (RT Y188H),RT-Y188H,syncytia,286
COC(=O)c1cc(NC(=S)OC(C)C)ccc1Cl,,RT-V106A,syncytia,≥20
Cc1ccc(C)c(CS(=O)c2ccc(Cl)c[n+]2[O-])c1,,RT-K103N,cytopathic effect,4.5
COc1ccccc1C(=S)Nc1ccc(Cl)c(C(=O)OC(C)C)c1,,RT-L100I,syncytia,33.3
CCCCOC(=S)Nc1ccc(Cl)c(C(=O)OC(C)C)c1,,RT-V106A,syncytia,100
CCCCCCCCCC[N+](C)(C)CCCNCc1c(O)cc2c(c1O)-c1cc(ccc1O)[C@H]1NC(=O)[C@@H]3NC(=O)C4NC(=O)[C@@H](Cc5ccc(c(Cl)c5)Oc5cc3cc(c5O)Oc3ccc(cc3Cl)[C@@H](O)[C@H](NC1=O)C(=O)N[C@@H]2C(=O)O)NC(=O)[C@H](N)c1ccc(O)c(c1)Oc1cc(O)cc4c1,,RT-Y181C,syncytia,3
C/C(Cl)=C/COc1cc(NC(=O)c2ccoc2C)ccc1Cl,TIBO R82913-resistant (RT K103N),RT-K103N,syncytia,55.6
CC1=C(C(=O)Nc2cc(C(=O)OC(C)C)c(Cl)cc2F)SCCO1,Nevirapine-resistant (RT V106A),RT-V106A,syncytia,>15.4
O=C(Nc1ccc(Cl)c(C(=O)OC2CCCCC2)c1)c1ccccc1F,IIIB,RT-Y181C,syncytia,8.33
O=C(Nc1ccc(Cl)c(C(=O)OC2CCCCC2)c1)c1ccccc1F,,RT-E138K,syncytia,6.875
Cc1occc1C(=S)Nc1ccc(Cl)c(OCC=C(Cl)Cl)c1,TIBO R82150-resistant (RT L100I),RT-L100I,syncytia,16.5
CO/N=C/c1cc(NC(=S)c2ccoc2C)ccc1OC,,RT-L100I,syncytia,21.5
CCC(CC)COC(=O)c1cc(NC(=S)OC(C)C)ccc1Cl,,RT-E138K,syncytia,16.6
CC1=C(C(=O)Nc2ccc(Cl)c(C(=O)OC(C)C)c2)SCCO1,IIIB,RT-Y188H,syncytia,67
CC1=C(C(=O)Nc2ccc(Cl)c(C(=O)OC(C)C)c2)SCCO1,,RT-L100I,syncytia,≥140
CC1=C(C(=S)Nc2ccc(Cl)c(/C=N/OC(C)(C)C)c2)CCO1,,RT-V106A,syncytia,4.76
CC1=C(C(=O)Nc2cc(Cl)cc(C(=O)OC(C)C)c2)SCCO1,TIBO-resistant (RT L100I),RT-L100I,syncytia,1
CCCCCCCCCC[N+](C)(C)CCCNCc1c(O)cc2c(c1O)-c1cc(ccc1O)[C@H]1NC(=O)[C@@H]3NC(=O)C4NC(=O)[C@@H](Cc5ccc(c(Cl)c5)Oc5cc3cc(c5O)Oc3ccc(cc3Cl)[C@@H](O)[C@H](NC1=O)C(=O)N[C@@H]2C(=O)O)NC(=O)[C@H](N)c1ccc(O)c(c1)Oc1cc(O)cc4c1,,RT-L100I,syncytia,1.89
Cc1ccsc1C(=S)Nc1ccc(Cl)c(/C=N/OC(C)(C)C)c1,,RT-E138K,syncytia,5
CC(C)OC(=S)Nc1ccc(Cl)c(C(=O)OC2CCCC2)c1,,RT-E138K,syncytia,29.7
CCc1c(Sc2cc(C)cc(C)c2)n(COCCO)c(=O)[nH]c1=O,IIIB,RT-E138K,syncytia,10
C/C=C/CSc1cc(NC(=S)c2ccsc2C)ccc1Cl,,RT-V106A,syncytia,4.59
Cc1occc1C(=O)Nc1ccc(Cl)c(SCC=C(Cl)Cl)c1,Pyridone-resistant (RT Y181C),RT-Y181C,syncytia,21.5
CCCCC(CC)COC(=O)c1cc(NC(=S)OC(C)C)ccc1Cl,,RT-L100I,syncytia,106
CC(C)OC(=O)c1cc(NC(=S)c2ccsc2)ccc1Cl,,RT-V106A,syncytia,19.2
CC1=C(C(=O)Nc2ccc(F)c(C(=O)OC(C)C)c2)SCCO1,TSAO-resistant (RT E138K),RT-E138K,syncytia,>28.6
Cc1occc1C(=S)Nc1ccc(Cl)c(/C=N/OCc2ccccc2)c1,,RT-Y181C,syncytia,2.95
CSc1ccc(NC(=S)OC(C)C)cc1C(=O)OC(C)C,,RT-Y181C,syncytia,42.5
Cc1ccsc1C(=O)Nc1ccc(Cl)c(/C=N/OC(C)(C)C)c1,,RT-E138K,syncytia,6.83
COc1ccc(C)cc1CS(=O)(=O)c1cccc[n+]1[O-],IIIB,RT-Y181C,syncytia,8.47
Cn1cccc1C(=S)Nc1ccc(Cl)c(/C=N/OC(C)(C)C)c1,,RT-L100I,syncytia,4.49
CCOC(=O)C(C)Oc1cc(NC(=S)OC(C)C)ccc1Cl,,RT-V106A,syncytia,2.31

The first 5 rows once more:

structure	strain or isolate	mutations	read by	value
C=C(C)COc1cc(NC(=S)OC(C)C)ccc1Cl		RT-Y181C	syncytia	>11.1
CCOCn1c(Sc2ccccc2)c(C(C)C)c(=O)[nH]c1=S	IIIB	RT-Y188H	syncytia	≥3330
CC1=C(C(=O)Nc2ccc(Cl)c(C(=O)OC(C)C)c2)SCCO1	IIIB	RT-V106A	syncytia	>1450
C=C(Cl)COc1cc(NC(=S)c2ccoc2C)ccc1Cl	Pyridone-resistant (RT Y181C)	RT-Y181C	syncytia	22.8
CCC(C)OC(=S)Nc1ccc(Cl)c(C(=O)OC(C)(C)C)c1		RT-Y181C	syncytia	16.7

An empty or dashed field is not shown. Rows are shuffled and stem from different studies.